Measured values from several laboratories, pooled; numbers as filed in NIAID ChemDB.

All rows: growth or infection tests; species: Herpes simplex virus 2

ECn: concentration that inhibits the pathogen or its effect by n%. An empty or dashed field is not shown. Rows are shuffled and stem from different studies. Two numbers with a dash give a range or band.

structure | strain or isolate | read-out | method | cells | result
CSc1ncnc2c1cnn2Cc1cnnn1CCCCO | G | EC50 |  | E6SM | >400 µg/mL
O=C(O)P(=O)(O)O | HS-44 (TK-) | EC50 | cytopathic effect | HEL | 47 µM
Nc1ncnc2c1ncn2C1CC(COP(=O)(O)O)[C@@H](O)[C@H]1O |  | EC50 | cytopathic effect | PRK | 7 µg/mL
CNc1ncnc2c1cnn2Cc1cn(CCCCO)nn1 | G | EC50 |  | E6SM | >400 µg/mL
Nc1nc2c(ncn2[C@H]2C=C[C@@H](CO)CC2)c(=O)[nH]1 |  | EC50 | cytopathic effect | VERO | 0.1–1 µM
Nc1nc2c(ncn2[C@@H]2C=C[C@H](CO)[C@@H](O)C2)c(=O)[nH]1 | 196 | EC50 | cytopathic effect | E6SM | 0.07 µg/mL
CCCCNc1cn([C@@H]2C[C@H](CO)[C@@H](O)C2)c(=O)[nH]c1=O | MS | EC50 | cytopathic effect | VERO | 229 µg/mL
O=c1[nH]cnc2c1cnn2Cc1cn(CCCCO)nn1 | G | EC50 |  | E6SM | >400 µg/mL
Nc1nc2c(ncn2COCCO)c(=O)[nH]1 | UW-268 | EC50 | plaque count | HEL | 0.67 µM
N=c1c2ncn([C@@H]3O[C@H](COP(=O)(O)O)[C@@H](O)[C@@H]3O)c2ncn1O |  | MIC |  |  | 1–10 µg/mL
CCCCOC[C@H]1O[C@@H]2CC(C)(C)C[C@@H]2[C@H]1OCCCC | G | EC50 | cytopathic effect | E6SM | >80 µg/mL
NC(=S)NC1N=C(c2ccccc2)SN1 | MS | EC50 |  | VERO | 159.6 µg/mL
Nc1nc(N)c(Cc2ccccc2)c(OCCOCP(=O)(O)O)n1 | G | EC50 | cytopathic effect | E6SM | 660 µM
Cc1cn([C@@H]2O[C@H](CO)[C@@H](O)[C@@H]2F)c(=O)[nH]c1=O | Lovelace MS | EC50 | plaque count | VERO | 0.5 µM
Nc1nc2c(ncn2[C@H]2C=C[C@@H](CO)[C@H](O)C2)c(=O)[nH]1 | G | EC50 | cytopathic effect | E6SM | 0.07 µg/mL
Nc1nc2c(ncn2COCCO)c(=O)[nH]1 | G | EC50 | plaque count | VERO | 0.4–1 µg/mL
Nc1ncnc2c1ncn2C1CC(CO)[C@@H](O)[C@H]1O |  | EC50 | cytopathic effect | PRK | 4 µg/mL
O=c1[nH]c(=O)n([C@@H]2O[C@H](CO)[C@@H](O)[C@@H]2F)cc1/C=C/Br | MS | EC50 | plaque count | CCRF-HSB-2 | 24 µM
Nc1nc2c(ncn2COC(CO)CO)c(=O)[nH]1 |  | EC50 | cytopathic effect | VERO | 0.01–0.1 µM
CCOP(=O)(OCC)C1=NOC(n2cc(C)c(=O)[nH]c2=O)C1 |  | EC50 | plaque count | VERO | >400 µM
Cc1cn([C@@H]2O[C@H](CO)[C@@H](O)[C@@H]2O)c(=O)[nH]c1=O | MS | EC50 | plaque count | CCRF-HSB-2 | 1.74 µM
O=C(O)CP(=O)(O)O | UW-268 | EC50 | plaque count | HEL | 39 µM
CNc1cn([C@H]2C[C@H](O)[C@@H](CO)O2)c(=O)[nH]c1=O | MS | EC50 | cytopathic effect | VERO | 32 µg/mL
O=C(O)P(=O)(O)O | P | EC50 | plaque count | GMK | 88.3 µM
Cc1cn([C@@H]2C[C@H](CO)[C@@H](O)C2)c(=O)[nH]c1=O | MS | EC50 | cytopathic effect | VERO | 7 µg/mL
Nc1cc(OC[C@H](CO)OCP(=O)(O)O)nc(N)n1 | G | EC50 | cytopathic effect | E6SM | 17 µM
CC1(C)OCC2(CO[C@H](n3ccc(=O)[nH]c3=O)C2)O1 |  | EC50 |  | CCL18 | >100 µM
CO[C@H]1[C@H]2O[Si](C(C)C)(C(C)C)O[Si](C(C)C)(C(C)C)OC[C@@H]2O[C@@H]1c1ccccc1 | G | EC50 | cytopathic effect | E6SM | >16 µg/mL
O=C(NCc1ccc(Cl)cc1)c1cn2c3c(cc(CN4CCOCC4)cc3c1=O)OC(c1cccnc1)C2 | G (WILD TYPE) | EC50 | plaque count | HFF | >16.4 µM
O=c1c2ncn(COC(CO)CO)c2nc2[nH]c(-c3ccccc3)cn12 | 196 | EC50 | cytopathic effect | E6SM | 0.02 µg/mL
O=c1[nH]c(=O)n([C@H]2C[C@H](O)[C@@H](CO)O2)cc1C1CC1 | G 196 LYONS | EC50 | cytopathic effect | E6SM | 91 µM
Nc1nc2c(ncn2[C@@H]2C=C[C@H](CO)CC2)c(=O)[nH]1 |  | EC50 | cytopathic effect | VERO | 0.1–1 µM
O=C1O[C@H](CO)C[C@]1(O)CO |  | EC50 |  | CCL18 | >100 µM
COCc1cn([C@H]2C[C@H](O)[C@@H](CO)O2)c(=O)nc1N | MS | EC50 | plaque count | VERO | 228 µM
CCOP(=O)(OCC)C1=NOC(n2ccc(NC(C)=O)nc2=O)C1 |  | EC50 | plaque count | VERO | >200 µM
Nc1ccn(C[C@@H](CO)OCP(=O)(O)O)c(=O)n1 | HS-47 (TK+) | EC50 | cytopathic effect | HEL | 1.5 µM
CC1(C)OCC2(COC(O)C2)O1 |  | EC50 |  | CCL18 | >100 µM
Nc1nc2c(ncn2COC(CO)CO)c(=O)[nH]1 | MS | EC50 | plaque count | VERO | 1.8 µM
Nc1nc(N)c2nnn([C@H]3CC[C@H](O)[C@H]3CO)c2n1 | MS | EC50 | cytopathic effect | PRK | 10 µg/mL
Cn1cc(C(=O)NCc2ccc(Cl)cc2)c(=O)c2cc(CN3CCOCC3)ccc21 | 12247 (ACV-resistant) | EC50 | plaque count | HFF | 2.8 µM
COc1ccc2nc3n[nH]c(C)c3c(Cl)c2c1 |  | EC50 | plaque count | WI-38 | 1.2 µg/mL
Nc1ccn([C@H]2C[C@](O)(CO)CO2)c(=O)n1 |  | EC50 |  | CCL18 | >100 µM
CC1(C)C(OC2O[C@H](C(=O)O)[C@@H](O)[C@H](N[C@@H]3O[C@H](CO)[C@H](O)[C@H](O)[C@H]3O)[C@H]2OC2O[C@H](O)[C@@H](O)[C@H](O)[C@H]2C(=O)O)CC[C@@]2(C)C1CC[C@]1(C)C2C(=O)C=C2C3C[C@@](C)(C(=O)O)CC[C@]3(C)CC[C@]21C |  | EC50 | cytopathic effect | VERO | >32 µg/mL
O=c1[nH]c(=O)n([C@H]2C[C@H](O)[C@@H](CO)S2)cc1C1CCCCC1 | G 196 LYONS | EC50 | cytopathic effect | E6SM | 800 µM
CC(=O)OC[C@H]1O[C@@H](c2ccccc2)C[C@@H]1OC(C)=O | G | EC50 | cytopathic effect | E6SM | >400 µg/mL
O=c1[nH]c(=O)n([C@@H]2O[C@H](CO)[C@@H](O)[C@@H]2O)cc1I | MS | EC50 | plaque count | CCRF-HSB-2 | 30.8 µM